A mixed list of measured activities; the numbers were collected in NIAID ChemDB.

All rows: whole-cell or culture tests; organism: HIV-1; cell line: MT-4; measure: EC50

Neighbouring rows are from separate reports.

SMILES,strain or isolate,mutations,read by,setting,value
CC1(C)CC=C(c2cn(-c3nccc(C(=O)NC4CCC(N5CC6CCC(C5)O6)CC4)n3)c3ccc(F)c([C@H](OC(C)(C)C)C(=O)O)c23)CC1,NL4-3,A129T,luminescence,-,0.0068 µM
CCC(C)[C@@H](C(=O)N[C@@H](Cc1ccccc1)[C@H](O)CN(CC(C)C)S(=O)(=O)c1ccc(/C=N/O)cc1)N1CCN(Cc2ccc(C)nc2)C1=O,-,-,cytopathic effect / MTT,-,0.002 µM
CC(C)CN(C[C@@H](O)[C@H](Cc1ccccc1)NC(=O)OCc1cccnc1)S(=O)(=O)c1ccc2nc[nH]c2c1,LAI WT,-,cytopathic effect / MTT,-,0.1 µM
Cc1nc2c(c(C)c(C)n2Cc2ccn[nH]2)c(-c2ccc(Cl)cc2)c1[C@H](OC(C)(C)C)C(=O)O,IIIB,-,MTT,-,0.02287 µM
Cc1cc(/C=C/C#N)cc(C)c1Oc1nc(NC2CCN(Cc3ccncc3)CC2)nc2ccsc12,IIIB,NNRTI-resistant (RT F227L V106A),MTT,-,0.0148 µM
CCC(C)[C@@H](C(=O)N[C@@H](Cc1ccccc1)[C@H](O)CN(CC(C)C)S(=O)(=O)c1ccc(/C=N/O)cc1)N1CCN(Cc2ccc(OC)nc2)C1=O,A17 (LPV-resistant),PR-L10F V32I M46I I47V Q68E I84V,cytopathic effect / MTT,-,0.01 µM
CCOCn1c(Cc2cccc(C(F)(F)F)c2)c(CC)c(=O)[nH]c1=O,EFV-resistant (K103R V179D P225H),-,MTT,-,>100 µM
CC(C)CN(C[C@@H](O)[C@H](Cc1ccccc1)NC(=O)O[C@H]1CO[C@H]2OCC[C@H]21)S(=O)(=O)c1ccc2nc(NC(=O)OCCN(C)C)[nH]c2c1,LAI WT,-,cytopathic effect / MTT,-,0.398 µM
COP(=O)(c1cc(C)cc(CCC#N)c1)c1c(C(N)=O)[nH]c2ccc(Cl)cc12,IIIB,-,cytopathic effect,-,0.0005 µM
C=C(C)COCn1c(Cc2cccc(F)c2)c(CC)c(=O)[nH]c1=O,N119 (Y181C),-,MTT,-,24 µM
CCC(C)[C@@H](C(=O)N[C@@H](Cc1ccccc1)[C@H](O)CN(CC(C)C)S(=O)(=O)c1ccc(/C=N/O)cc1)N1CCN(Cc2cccnc2)C1=O,A17 (LPV-resistant),PR-L10F V32I M46I I47V Q68E I84V,cytopathic effect / MTT,-,0.008 µM
Cc1cc(/C=C/C#N)cc(C)c1Oc1nc(NC2CCN(Cc3cccc(Br)c3)CC2)nc2ccsc12,RES056,-,MTT,-,0.216 µM
Cc1nc2c(c(C)c(C)n2Cc2cnccn2)c(-c2ccc(Cl)cc2)c1[C@H](OC(C)(C)C)C(=O)O,IIIB,-,MTT,-,0.00466 µM
C=CCOCn1c(Cc2cc(C(F)(F)F)cc(C(F)(F)F)c2)c(CC)c(=O)[nH]c1=O,A17,K103N + Y181C,MTT,-,>100 µM
Cc1ccccc1CN1CCC(Nc2nc(Oc3c(C)cc(/C=C/C#N)cc3C)c3sccc3n2)CC1,IIIB,NNRTI-resistant (RT K103N),MTT,-,0.0248 µM
CCC(C)[C@@H](C(=O)N[C@@H](Cc1ccccc1)[C@H](O)CN(CC1CCCC1)S(=O)(=O)c1ccc(/C=N/O)cc1)N1CCN(Cc2cccnc2)C1=O,A17 (LPV-resistant),PR-L10F V32I M46I I47V Q68E I84V,cytopathic effect / MTT,-,0.001 µM
CCOCn1c(Cc2cccc(F)c2)c(C(C)C)c(=O)[nH]c1=O,A17,K103N + Y181C,MTT,-,42 µM
CCOC(=O)c1ccc(CN2CCC(Nc3nc(Oc4c(C)cc(/C=C/C#N)cc4C)c4sccc4n3)CC2)cc1,IIIB,NNRTI-resistant (RT L100I),MTT,-,0.0268 µM
Cc1nc2c(c(C)c(C)n2Cc2cccc(C#N)c2)c(-c2ccc(Cl)cc2)c1[C@H](OC(C)(C)C)C(=O)O,IIIB,-,MTT,-,0.02694 µM
COC(=O)Nc1nc2ccc(S(=O)(=O)N(CC(C)C)C[C@@H](O)[C@H](Cc3ccccc3)NC(=O)c3ccc(O)cc3C)cc2[nH]1,LAI WT,-,cytopathic effect / MTT,-,0.079 µM
Cc1cc(C#N)cc(C)c1Oc1nc(NC2CCC(NCc3ccc(O)cc3)CC2)nc2ccsc12,IIIB,NNRTI-resistant (RT K103N),MTT,-,4.6 µM
CC(C)CN(C[C@@H](O)[C@H](Cc1ccccc1)NC(=O)OC1COC2OCCC12)S(=O)(=O)c1ccc2nc(NC(=O)NCCN(C)C)[nH]c2c1,LAI WT,-,cytopathic effect / MTT,-,2.512 µM
Cc1nc2ccccc2c(-c2cc(F)c3c(c2C)CCCO3)c1[C@H](OC(C)(C)C)C(=O)O,NL4-3,G140S/Q148H,luminescence,-,0.025 µM
C#CCOCn1c(Cc2cccc(C(F)(F)F)c2)c(CC)c(=O)[nH]c1=O,EFV-resistant (K103R V179D P225H),-,MTT,-,>68 µM
Cc1nc2c(c(C)c(C)n2CC2CCC2)c(-c2ccc(Cl)cc2)c1[C@H](OC(C)(C)C)C(=O)O,IIIB,-,MTT,-,0.0277 µM
CCC(C)[C@@H](C(=O)N[C@@H](Cc1ccccc1)[C@H](O)CN(CC(C)C)S(=O)(=O)c1ccc(/C=N/O)cc1)N1CC(=O)N(Cc2cccnc2)C1=O,-,-,cytopathic effect / MTT,50% human serum,0.016 µM
Cc1cc(/C=C/C#N)cc(C)c1Oc1nc(NC2CCN(Cc3ccccc3Br)CC2)nc2ccsc12,IIIB,NNRTI-resistant (RT K103N),MTT,-,0.0451 µM

Repeating the final 2 entries:

SMILES	strain or isolate	mutations	read by	setting	value
CCC(C)[C@@H](C(=O)N[C@@H](Cc1ccccc1)[C@H](O)CN(CC(C)C)S(=O)(=O)c1ccc(/C=N/O)cc1)N1CC(=O)N(Cc2cccnc2)C1=O	-	-	cytopathic effect / MTT	50% human serum	0.016 µM
Cc1cc(/C=C/C#N)cc(C)c1Oc1nc(NC2CCN(Cc3ccccc3Br)CC2)nc2ccsc12	IIIB	NNRTI-resistant (RT K103N)	MTT	-	0.0451 µM

ECn: concentration that inhibits the pathogen or its effect by n%. An empty or dashed field is not shown.